A mixed list of measured activities; the numbers were collected in NIAID ChemDB.

Shared fields: growth or infection tests; agent: HIV-1; cell line: MT-4; method: MTT; endpoint: EC50

ECn: concentration that inhibits the pathogen or its effect by n%.

compound | mutations | strain | value
CCc1c(Cc2cc(C)cc(C)c2)n(Cc2ccc(C#CCO)cc2)c(=O)[nH]c1=O | K103N + Y181C | IIIB | >2 µM
O=c1c2ccccc2sn1/N=C/c1ccc(Cl)cc1 | K103N + Y181C | - | >26 µM
Cc1cc(-c2ccc(C#N)cc2)cc(C)c1Oc1ccnc(S(=O)(=O)C(C)C(=O)NCc2ccc(Br)cc2)n1 | - | IIIB | >4.77 µM
COc1cc(/C=N/n2sc3ccccc3c2=O)ccc1O | K103N + Y181C | - | >15 µM
Cc1c(C(C)c2cccc(F)c2)n(COCc2ccccc2)c(=O)[nH]c1=O | - | IIIB | >339.3 µM
O=c1c2ccccc2sn1/N=C/c1ccc(O)cc1 | Y181C | - | >18 µM
C#CCOCn1c(Cc2ccccc2)c(CF)c(=O)[nH]c1=O | Y181C | Clinical isolates | >100 µM
CCOCn1c(Cc2cccc(F)c2)c(C(C)C)c(=O)[nH]c1=O | - | EFV-resistant (K103R V179D P225H) | 56 µM
C=C(c1ccccc1)c1c(C)c(=O)[nH]c(=O)n1COCc1ccccc1 | F227L + V106A | IIIB | 43.65 µM
CCc1c(Cc2cc(C)cc(C)c2)n(COCC#CC#CCO[Si](c2ccccc2)(c2ccccc2)C(C)(C)C)c(=O)[nH]c1=O | Y181C | IIIB | >76 µM
Cc1ccc2sn(/N=C/c3cccc(F)c3)c(=O)c2c1 | K103N + Y181C | - | >30 µM
S=C(Nc1nc2ccccc2s1)Nc1ccccc1Br | - | IIIB | >1.6 µM
COc1cc(/C=N/n2sc3ccc(C)cc3c2=O)ccc1O | EFV-resistant (K103 V179D P225H) | - | >16 µM
COc1ccc(C(C)c2c(C)c(=O)[nH]c(=O)n2COCc2ccccc2)cc1 | - | IIIB | >329 µM
Cc1ccc2sn(/N=C/c3cccc(Cl)c3)c(=O)c2c1 | K103N + Y181C | - | >59 µM
Cc1cc(-c2ccc(C#N)cc2)cc(C)c1Oc1ccnc(S(=O)(=O)C(C)C(=O)Nc2ccc(Cl)cc2)n1 | F227L V106A | IIIB | 2.49 µM
C=CCOCn1c(Cc2cccc(C(F)(F)F)c2)c(C(C)C)c(=O)[nH]c1=O | - | N119 (Y181C) | 1.3 µM
S=C(Nc1nc2ccccc2s1)NC1CC2CCC1C2 | - | IIIB | >46 µM
CCc1c(Cc2cc(C)cc(C)c2)n(COCCO)c(=O)[nH]c1=O | K103N + Y181C | IIIB | 30 µM
CCc1c(Cc2cc(C)cc(C)c2)n(COCC#Cc2cccc(C#N)c2)c(=O)[nH]c1=O | WT | IIIB | 0.01 µM
Cc1ccc(C(C)c2c(C)c(=O)[nH]c(=O)n2COCc2ccccc2)cc1 | - | IIIB | >343 µM
Cc1cc(-c2ccc(C#N)cc2)cc(C)c1Oc1ccnc(S(=O)(=O)CC(=O)Nc2ccc(F)cc2)n1 | - | RES056 | 3.536 µM
Cc1cccc(C(C)c2c(C(C)C)c(=O)[nH]c(=O)n2COCc2ccccc2)c1 | Y181C | IIIB | 5.57 µM
Cc1ccc2sn(/N=C/c3ccc(O)c(O)c3)c(=O)c2c1 | - | - | >49 µM
C=CCOCn1c(Cc2ccccc2)c(CO)c(=O)[nH]c1=O | EFV:K103R+V179D+P225H | IIIB | >100 µM
CCOCn1c(Cc2cc(C(F)(F)F)cc(C(F)(F)F)c2)c(C(C)C)c(=O)[nH]c1=O | K103N + Y181C | A17 | >100 µM
CCc1c(Cc2ccccc2C)n(COCC#Cc2cccc3ccccc23)c(=O)[nH]c1=O | EFV-resistant (K103R V179D P225H) | IIIB | >34 µM
Cc1cc(-c2ccc(C#N)cc2)cc(C)c1Oc1ccnc(S(=O)(=O)CC(=O)Nc2ccc(Cl)cc2)n1 | L100I | IIIB | 0.116 µM
O=c1c2ccccc2sn1/N=C/c1cccc(O)c1 | K103N + Y181C | - | >15 µM
COc1ccc(NC(=S)Nc2nc3ccccc3s2)cc1 | - | IIIB | >68 µM
C=C(c1cc(OC)cc(OC)c1)c1c(C)c(=O)[nH]c(=O)n1COCc1ccccc1 | L100I | IIIB | 8.67 µM
Cc1cc(C#CCCO)cc(C)c1Oc1ccnc(Nc2ccc(C#N)cc2)n1 | RES056 | IIIB | >3.55 µM
C#CCOCn1c(Cc2cccc(F)c2)c(CC)c(=O)[nH]c1=O | - | EFV-resistant (K103R V179D P225H) | >100 µM
COc1ccc(/C=N/n2sc3ccccc3c2=O)cc1 | - | - | >19 µM
Nc1ccn([C@@H]2CS[C@H](CO)O2)c(=O)n1 | E138K | IIIB | 2.9 µM
N#Cc1ccc(N2C(=O)CS/C2=N\c2nc3ccccc3s2)cc1 | - | IIIB | >100 µM
Cc1cc(-c2ccc(C#N)cc2)cc(C)c1Oc1ccnc(S(=O)(=O)CC(=O)Nc2ccc(Br)cc2)n1 | - | RES056 | 4.999 µM
Cc1cn([C@H]2C[C@H](N=[N+]=[N-])[C@@H](CO)O2)c(=O)[nH]c1=O | EFV-resistant | IIIB | 0.02 µM
CCc1c(Cc2cc(C)cc(C)c2)n(COCC#Cc2ccc(O[Si](c3ccccc3)(c3ccccc3)C(C)(C)C)cc2)c(=O)[nH]c1=O | EFV-resistant (K103R V179D P225H) | IIIB | >100 µM
C=CCOCn1c(Cc2cccc(F)c2)c(CC)c(=O)[nH]c1=O | - | N119 (Y181C) | 10 µM
CCc1c(Cc2ccccc2C)n(COC/C(Br)=C(\Br)c2ccccc2)c(=O)[nH]c1=O | WT | IIIB | 0.6 µM
Cc1cc(C#N)cc(C)c1Oc1nc(Nc2ccc(C#N)cc2)nc(N)c1Br | K103N | IIIB | 0.0032 µM
CCc1c(Cc2cc(C)cc(C)c2)n(COCC#Cc2ccc([N+](=O)[O-])cc2)c(=O)[nH]c1=O | EFV-resistant (K103R V179D P225H) | IIIB | >7 µM
CCc1c(Cc2cc(C)cc(C)c2)n(Cc2ccc(I)cc2)c(=O)[nH]c1=O | K103N + Y181C | IIIB | >43 µM
CCc1c(Cc2ccccc2C)n(COCC#Cc2ccc(N)cc2)c(=O)[nH]c1=O | EFV-resistant (K103R V179D P225H) | IIIB | >39 µM
Cc1ccccc1C(C)c1c(C)c(=O)[nH]c(=O)n1COCc1ccccc1 | Y181C | IIIB | >343 µM
C#CCOCn1c(Cc2cccc(C(F)(F)F)c2)c(CC)c(=O)[nH]c1=O | - | EFV-resistant (K103R V179D P225H) | >68 µM

3 of the rows above, restated:

| compound | mutations | strain | value |
|---|---|---|---|
| Cc1cc(-c2ccc(C#N)cc2)cc(C)c1Oc1ccnc(S(=O)(=O)C(C)C(=O)NCc2ccc(Br)cc2)n1 | - | IIIB | >4.77 µM |
| COc1ccc(/C=N/n2sc3ccccc3c2=O)cc1 | - | - | >19 µM |
| CCc1c(Cc2cc(C)cc(C)c2)n(COCC#CC#CCO[Si](c2ccccc2)(c2ccccc2)C(C)(C)C)c(=O)[nH]c1=O | Y181C | IIIB | >76 µM |

Blank or dashed fields: not listed here. Lines come from different laboratories, so protocols vary.